# B1: CSPG4^mini (human CSPG4 residues 30–764: two laminin G motifs and first two CSPG repeats) (domain or fragment)
# chain: ASFFGENHLEVPVATALTDIDLQLQFSTSQPEALLLLAAGPADHLLLQLYSGRLQVRLVLGQEELRLQTPAETLLSDSIPHTVVLTVVEGWATLSVDGFLNASSAVPGAPLEVPYGLFVGGTGTLGLPYLRGTSRPLRGCLHAATLNGRSLLRPLTPDVHEGCAEEFSASDDVALGFSGPHSLAAFPAWGTQDEGTLEFTLTTQSRQAPLAFQAGGRRGDFIYVDIFEGHLRAVVEKGQGTVLLHNSVPVADGQPHEVSVHINAHRLEISVDQYPTHTSNRGVLSYLEPRGSLLLGGLDAEASRHLQEHRLGLTPEATNASLLGCMEDLSVNGQRRGLREALLTRNMAAGCRLEEEEYEDDAYGHYEAFSTLAPEAWPAMELPEPCVPEPGLPPVFANFTQLLTISPLVVAEGGTAWLEWRHVQPTLDLMEAELRKSQVLFSVTRGARHGELELDIPGAQARKMFTLLDVVNRKARFIHDGSEDTSDQLVLEVSVTARVPMPSCLRRGQTYLLPIQVNPVNDPPHIIFPHGSLMVILEHTQKPLGPEVFQAYDPDSACEGLTFQVLGTSSGLPVERRDQPGEPATEFSCRELEAGSLVYVHRGGPAQDLTFRVSDGLQASPPATLKVVAIRPAIQIHRSTGLRLAQGSAMPILPANLSVETNAVGQDVSVLFRVTGALQFGELQKQGAGGVEGAEWWATQAFHQRDVEQGRVRYLSTDPQHHAYDTVENLALEVQ
# notes: source: FreeStyle HEK 293 cells, secreted, purified (Ni-NTA, Superdex-200)
# Biological target: TcdB^core (residues 1–1967 of TcdB1, VPI10463 strain, W102A/D286N/D288N/L543A) (Clostridioides difficile (VPI10463 …, UniProt P18177 1-1967, W102A | D286N | D288N | L543A))
# Assay: cryo-EM structure
binder,measurement,value
B1,binding result,binds

# — publication PMC8213806 (Nature Communications, 2021)
